Compound potency records, mixed from different reports. Data source: NIAID ChemDB in PubChem.

Shared fields: growth or infection tests; organism: Hepatitis B virus; read by: PCR; measure: EC50

Conditions beyond the fields shown may differ between rows. Two numbers with a dash give a range or band. ECn is the concentration giving n% inhibition of infection, replication or growth.

compound,cells,value
CNC(=O)C(=O)N1CC[C@@H](NS(=O)(=O)c2cn(CC3CC3)c(C(=O)Nc3ccc(F)c(F)c3)c2F)C1,HepAD38 cells,0.1–0.3 µM
Cn1nc2cc(NS(=O)(=O)N3[C@@H]4CC[C@H]3CC(O)C4)ccc2c1C(=O)Nc1ccc(F)c(Cl)c1,HepAD38,100–1000 µM
C[C@@H](NC(=O)c1c2n(c(=O)n1-c1ccc(OC3CC3)cc1)CCN(C(=O)c1ccc(Br)c(Cl)c1)C2)c1ccc(OC(F)F)cc1F,HepG2.117,0.1–0.5 µM
C=C[C@@](C)(NC(=O)C(=O)c1c(C)c(C(=O)Nc2ccc(F)c(C#N)c2)n(C)c1C)C(F)(F)F,HepG2.2.15,0.001–0.0099 µM
Cn1nc2cc(NS(=O)(=O)c3cnn(C4CC4)c3)ccc2c1C(=O)Nc1ccc(F)c(Cl)c1,HepAD38,<100 µM
Cc1c(C(=O)C(=O)NC(C)(C)c2ccncn2)c(C)n(C)c1C(=O)Nc1ccc(F)c(C(F)(F)F)c1,HepG2.2.15,<0.001 µM
Cn1nc2cc(NS(=O)(=O)C3CC3)ccc2c1C(=O)Nc1ccc(F)c(Cl)c1,HepAD38,100–1000 µM
CCNC(=O)C(=O)N1CC[C@@H](NS(=O)(=O)c2cn(C)c(C(=O)Nc3cc(F)c(F)c(F)c3)c2Cl)C(F)(F)C1,HepAD38 cells,<0.1 µM
C[C@@H](NC(=O)c1c2n(c(=O)n1-c1ccc(OCC(F)(F)F)cc1)CCN(C(=O)c1ccc(Br)c(Cl)c1)C2)c1ccc(OC(F)(F)F)cc1F,HepG2.117,0.5–5 µM
Cc1c(C(=O)C(=O)NC(C)(C)c2cncnc2)c(C)n(C)c1C(=O)Nc1ccc(F)c(C(F)(F)F)c1,HepG2.2.15,0.001–0.0099 µM
COC(=O)C1=C(CN2CC(F)(F)[C@@H]3[C@H]2CON3CC[C@](C)(O)C(=O)O)NC(c2nccs2)=N[C@H]1c1ccc(F)c(F)c1C,HepG2.2.15,0.15 µM
Cn1ccc(S(=O)(=O)Nc2ccc3c(C(=O)Nc4ccc(F)c(Cl)c4)n(C)nc3c2)n1,HepAD38,<100 µM
C[C@@H](NC(=O)c1c2n(c(=O)n1-c1ccc(OCC(F)(F)F)cc1)CCN(C(=O)c1ccc(Br)c(Cl)c1)C2)c1ccccc1F,HepG2.117,0.1–0.5 µM
Cn1nc2cc(NS(=O)(=O)c3cnn(C4CCCC4)c3)ccc2c1C(=O)Nc1ccc(F)c(Cl)c1,HepAD38,<100 µM
COC(=O)C1=C(CN2CC(F)(F)[C@H]3[C@@H]2CCN3CC[C@@](C)(O)C(=O)O)NC(c2nccs2)=N[C@H]1c1ccc(F)c(F)c1F,HepG2.2.15,0.189 µM
Cn1cc(S(=O)(=O)N[C@@H]2CCN(C(=O)C(=O)NOCO)C2)c(F)c1C(=O)Nc1cc(F)c(F)c(F)c1,HepAD38 cells,<0.1 µM
CCOC(=O)C1=C(CN2CC(F)(F)[C@@H]3[C@H]2CON3C[C@@H](O)C(C)(C)C(=O)O)NC(c2nccs2)=N[C@H]1c1cccc(F)c1Cl,HepG2.2.15,0.024 µM
CC(C)(C)Oc1ccc(-n2c(C(=O)NCc3ccccc3)c3n(c2=O)CCN(C(=O)c2ccc(Br)c(Cl)c2)C3)cc1,HepG2.117,0.1–0.5 µM
Cn1nc2cc(NS(=O)(=O)NCC3CN(Cc4ccccc4)C3)ccc2c1C(=O)Nc1ccc(F)c(Cl)c1,HepAD38,>1000 µM
Cc1c(C(=O)C(=O)NC(C)(C)c2cnc[nH]2)c(C)n(C)c1C(=O)Nc1ccc(F)c(C#N)c1,HepG2.2.15,0.001–0.0099 µM
CCOC(=O)C1=C(CN2CC(F)(F)[C@@H]3[C@H]2CON3C[C@H](O)[C@H](CC)C(=O)O)NC(c2nccs2)=N[C@H]1c1cccc(F)c1C,HepG2.2.15,0.057 µM
Cn1nc2cc(NS(=O)(=O)N3CC[C@@H](O)C3)ccc2c1C(=O)Nc1ccc(F)c(Cl)c1,HepAD38,100–1000 µM
CCOC(=O)C1=C(CN2CC(F)(F)[C@@H]3[C@H]2CON3CCCC(C)(O)C(=O)O)NC(c2nccs2)=N[C@H]1c1cccc(F)c1C,HepG2.2.15,0.29 µM
COc1ccnc(-n2cc(S(=O)(=O)Nc3ccc4c(C(=O)Nc5ccc(F)c(Cl)c5)n(C)nc4c3)cn2)c1,HepAD38,<100 µM
COc1ccc(CNC(=O)c2c3n(c(=O)n2-c2ccc(OCC(F)(F)F)cc2)CCN(C(=O)c2ccc(Br)c(Cl)c2)C3)c(OC(F)F)c1,HepG2.117,0.1–0.5 µM
CCNC(=O)C(=O)N1CCN(S(=O)(=O)c2cn(C)c(C(=O)Nc3cc(F)c(F)c(F)c3)c2F)CC1,HepAD38 cells,0.3–1 µM
COC(=O)C1=C(CN2CC(F)(F)[C@@H]3[C@H]2CON3C[C@H](OC)C(C)(C)C(=O)O)NC(c2nccs2)=N[C@H]1c1ccc(F)cc1Cl,HepG2.2.15,0.031 µM

Again, the opening 4 rows:

compound | cells | value
CNC(=O)C(=O)N1CC[C@@H](NS(=O)(=O)c2cn(CC3CC3)c(C(=O)Nc3ccc(F)c(F)c3)c2F)C1 | HepAD38 cells | 0.1–0.3 µM
Cn1nc2cc(NS(=O)(=O)N3[C@@H]4CC[C@H]3CC(O)C4)ccc2c1C(=O)Nc1ccc(F)c(Cl)c1 | HepAD38 | 100–1000 µM
C[C@@H](NC(=O)c1c2n(c(=O)n1-c1ccc(OC3CC3)cc1)CCN(C(=O)c1ccc(Br)c(Cl)c1)C2)c1ccc(OC(F)F)cc1F | HepG2.117 | 0.1–0.5 µM
C=C[C@@](C)(NC(=O)C(=O)c1c(C)c(C(=O)Nc2ccc(F)c(C#N)c2)n(C)c1C)C(F)(F)F | HepG2.2.15 | 0.001–0.0099 µM